## Library screen at single concentrations

From ChEMBL document CHEMBL3988442, “University of Dundee, Small-Polar-MMV Screening Library” (2021).

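Growth of Mycobacterium tuberculosis over 4 days (cholesterol / DPPC medium with tyloxapol); the read-out is not stated. Tested at 50 µM. Higher reads as more growth inhibition (inferred: compounds with an IC50 in retests scored well above the rest). Of about 69,000 compounds tested this way, about 370 (0.54%) reached 50% or more in at least one test.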

Each number is a percent effect as filed.
How 0% and 100% were set is not recorded. Most values in the screen are low, and negative values occur.
Many other results are left out here, so strong results are more common than in the screen.
Two or more numbers in one place are separate tests of the same structure; such repeats can differ widely.

Compound,percent effect
CCOc1cc2c(cc1CNC(Cc1cccs1)c1nccs1)OCO2.Cl (centres unmarked),10.55 & 14.23
CC(Cn1cccn1)NCc1nc(-c2cccc(Cl)c2)no1 (centres unmarked),22.16
CC(NC(=O)CNc1cc2c(cc1Cl)OCCO2)c1ccco1 (centres unmarked),-2.721
COc1cc(C(C)=O)ccc1OCC(=O)c1cccn1C,-5.444 & -23.76
CC(Nc1ccc(Br)cc1)c1nc(C2CC2)no1 (centres unmarked),67.79
CN(Cc1cccnc1)CC1CC12CCN(Cc1nccs1)CC2 (centres unmarked),-20.14
COCCNC(=O)Nc1ccc(F)c(C(N)=O)c1,-16.39
Cc1noc(NC(=O)c2ccc(F)cc2)n1,-4.074
O=C(Cn1ccc2ccccc21)N1CCC(Oc2ncccc2Br)CC1,18.87
CCOCCSc1nnc(Cc2ccccc2F)o1,64.66 & 60.02
CN(C)CCN1C(=O)CCC12CCN(C(=O)c1cccnc1)CC2.O=C(O)C(F)(F)F.O=C(O)C(F)(F)F,6.394
CNC(=O)CCCNc1cc(C)nc2cc(C)nn12,-1.246
Cc1cc(C(=O)N2CCN(c3nc4c(C(C)C)cccc4s3)CC2)no1,51.22
COCCC(=O)N1CCC(Nc2ncc(Br)cn2)CC1,6.806
C=Cc1ccc(CN2C(=O)C3(CCNCC3)Nc3ccccc32)cc1,54.02
N#Cc1ccc(NC2CCN(c3ncccn3)CC2)cc1Cl,12.8
N#Cc1ccc(NCCNc2ccc(C(F)(F)F)cn2)nc1,32.71
Fc1ccc(COCC2CCN(Cc3ccccn3)CC2)cc1.O=C(O)C(=O)O,13.53
Cc1ccc(C(=O)N2CCN(c3ccnc4ccsc34)CC2)o1,6.51 & 10.06
O=C(O)C(F)(F)F.[H][C@@]12CN(CC(C)C)C[C@]1([H])C(=O)N(C)C21CCN(C(=O)C(C)C)CC1,0.667
CCN(CC)c1nc(Nc2cccc(C(C)O)c2)nc2ccccc12 (centres unmarked),96.35
FC1(F)CCN(Cc2cccnc2)CC12CCN(c1ccccn1)C2.O=C(O)C(F)(F)F.O=C(O)C(F)(F)F.O=C(O)C(F)(F)F (centres unmarked),-10.45
N#CCCN(Cc1ccco1)C(=O)CCCc1ccccc1,0.7005
COc1ccc(CN(C(=O)C2CCCS2)c2ccncc2)cc1 (centres unmarked),61.92
CS(=O)(=O)NCC1CCCN(c2ccc(C(F)(F)F)cn2)C1 (centres unmarked),-23.85
Cc1cc(NCC2CCS(=O)(=O)C2)n2nc(C)cc2n1 (centres unmarked),101.1
Cc1nccn1-c1cc(CNS(=O)(=O)N2CCCC(C)C2)ccn1 (centres unmarked),-8.152
CC(C)n1cnc(C2CN(C)c3ccc(C(=O)NC4CCCC4)cc32)n1 (centres unmarked),12.56 & -5.688
CCOc1ccccc1C(N)CC(C)C (centres unmarked),4.347
CCCC1c2cccn2CCN1C(=O)Cn1cnc2sc(C)cc2c1=O (centres unmarked),56.68 & 18.73
COc1cccc(CCC(=O)N2CCN(CC(C)(C)O)CC2)c1,-16.21
CCc1ocnc1C(=O)N1CCC2(CC1)OCC(C)O2 (centres unmarked),22.23
CC(=O)N1CCN(c2ccccc2CNc2cncc(C)c2)CC1,-2.141
O=C(CSc1nncs1)N1CCN(Cc2ccc(Cl)cc2)CC1,5.646
COCc1noc(-c2ccc(N(C)Cc3ccc(C)o3)nc2)n1,55.63 & 40.27
O=C(Nc1ccccn1)NC(CCCO)c1ccccc1 (centres unmarked),10.1
O=C1N(Cc2ccc(F)c(F)c2)CCCC12CCN(C1CCCCC1)C2 (centres unmarked),53.46
NCCn1nc(C2CCN(Cc3ccccc3)C2)c2nccnc21 (centres unmarked),7.931
O=S(=O)(c1ccccc1N1CC(n2cccn2)C1)C(F)(F)F,11.59
CC(CCc1ccco1)NC(=O)Nc1cc(C(F)(F)F)c[nH]c1=O (centres unmarked),59.33
CCCN1CCC(Nc2cc(-c3ccccc3)ccc2OC)CC1,52.38 & 60.39
Cc1nc(N2CCCC2)nc2c1CCN(Cc1ccsc1)CC2.O=C(O)C(F)(F)F,92.27 & 82.92
N[C@H]1CCCN(S(=O)(=O)c2ccc(C(=O)NCC(F)F)cc2)C1,83.46
Cc1ccccc1OCC1CCCN(c2cc(N)nc(N)n2)C1 (centres unmarked),72.99
O=C(Cn1nnn(-c2cccs2)c1=O)N(CC1CCOC1)C1CC1 (centres unmarked),-19.78
CC(C)c1nnc2n1CCN(C(=O)c1ccc(-n3cnnc3)cc1)C2,74.67
Cc1[nH]/c(=N\C(=O)c2csc(NC3CC3)n2)sc1C,-10.13
O=C(NCCn1cccc1)c1c(O)cc(F)cc1F,28.37
Cc1cccc(NC(=O)C(C)Oc2ccc3c(c2)OCO3)n1 (centres unmarked),50.58
N[C@@H]1c2ccccc2C2(CCN(c3ccc(C(F)(F)F)cn3)CC2)[C@H]1O,13.01
CN(CCS(=O)(=O)c1cc(Cl)ccc1Cl)CC(N)=O,18.11
OC1(c2ccccc2F)CCN(Cc2ccccc2N2CCCC2)CC1,10.76
O=C(Cn1nnn(-c2cccs2)c1=O)NCC1CCOC1 (centres unmarked),-14.94
Cn1nc(C2CCCN(Cc3ccc(F)cc3F)C2)c2nccnc21 (centres unmarked),-5.645
CC(C)c1nnc(CNc2ccc(SC(F)(F)F)cc2)o1,52.82
CCSc1ncc(CN2CCN(c3ncc(C)c(N)n3)CC2)cn1,56.12
Cc1cc(CNc2ccc3nc(C)sc3c2)no1,0.4344
O=c1c2sccc2nc2n1CCN(Cc1cccs1)CC2,5.917
COc1cc(Oc2ccc(C(F)(F)F)cn2)ccc1CN1CCCC1,54.32
COc1ccc(C(=O)Nc2c(C)nn(C(C)C)c2C)cc1,-2.967 & -18.76
c1ccc(-c2nc3c(c(NCc4nnc5n4CCC5)n2)CCNC3)cc1,-5.454
O=C(NCCSC1CCCC1)c1cnccn1,-13.46
CC(NC(=O)c1cc(-c2cccc(Cl)c2)no1)C(=O)N(C)C (centres unmarked),-15.47
COCC(C)NS(=O)(=O)c1ccc(Br)cn1 (centres unmarked),-5.426

The last 6 entries again:

| Compound | percent effect |
|---|---|
| `COc1cc(Oc2ccc(C(F)(F)F)cn2)ccc1CN1CCCC1` | 54.32 |
| `COc1ccc(C(=O)Nc2c(C)nn(C(C)C)c2C)cc1` | -2.967 & -18.76 |
| `c1ccc(-c2nc3c(c(NCc4nnc5n4CCC5)n2)CCNC3)cc1` | -5.454 |
| `O=C(NCCSC1CCCC1)c1cnccn1` | -13.46 |
| `CC(NC(=O)c1cc(-c2cccc(Cl)c2)no1)C(=O)N(C)C` (centres unmarked) | -15.47 |
| `COCC(C)NS(=O)(=O)c1ccc(Br)cn1` (centres unmarked) | -5.426 |